From PMC12285254 come the findings set out here.

This data set concerns TetR1 (C_22735). The data set can be described thus: EMSA. The settings on record: supershift with anti-Myc (Myc.A7); LightShift EMSA Optimization and Control kit (Thermo) per manufacturer, 100 ng probe per reaction, varied protein; 2 uL of 1 mg/mL Myc.A7 for supershift; recombinant protein; residues 1-189; label: biotin (labeled or unlabeled primers); probe letters rebuilt from the primers and the genome.

For “CGTTACCCGTTTCTTGGATCCCAAAGGTGGCGGATGGCCATATTATTTAGAGTGCGGAATGTGATCATCTTGATGAACTTTTTCAGCCGAATGTAAGTGAAAGATTACACACATTTAGAAACATTCTAGGTGATGGCACGCTATCATCGGTGGTAATAACAGTGGGTTCACAGAACCTTAACCTGCGATTTCGGTAATAAGCTACGCTGAATCCTTTCCGCCAATCCTTAGATGGCTGTGCCTGGAAATACTCTAAGCAGGTGGGCTTTTGTTCGGATTGCCGAATGCGATGATGACTAAAAGCCATCACTAGTGGTGCCGAAAAACCGGGGCTATGACCGCTTTGCCAGTATTCAAGCCTCTGTGTTGTTCGGAAATCCGACTGCTCGTGGAGGCGGTACTAAGCTCGTTGTATTGACTGTTAAAGTGTGCAAGTAATTAGTGTCAGGCTGTTGTTTGTTTTTTGATATTATTGTTATCCGCTTCTTTAAGCTCGCCGTTACAAATCGGTTGGTTTTCTTTTTTTTTGTGTTCGGGTTTCTGCTGTTTTCTTACTTGCCACTCCCTTTAGTTTTTTTGAAGGGTCTTATATATGTCTCTCGAGTAGTGACAATAAGTTAGTTGCGTTTGATTGCGCGATTTTGGGGCGCTTGCTGCTCAAAGGTGCCCGGTCTTCTCTCTGGTCACAGCTGCCTTCAGGTGTGGAGAGGCCCTGTGGCTGCGGGGTGAGCCAGTGCATGGGCACTGTAAGCGCTTGTTCGCATTGGAGTAACGATAGATTAAAGTAATCATCTCAAGAGCCTGAGTCTATCGGCGGGGTCGGCTTGGTATGATGATATTACTATGATAGTAATTCTCAACTTTGTGATCTTTTTCTCATTTTCCGGGGAACTAAATTAATATATGTCTGCCTTGTAAGACGTGGTATTAATACTCCGCTTGCCACCCACAATGAGAGTGAACGATGAGCACAGGC (double strand) [hrpR upstream probe (976 bp)]”, the binding result was “binds”.
